Literature values in PMC5923399 (Marine Drugs, 2018).
pIC50: −log10 of the molar value. Read-outs that look alike come from different tables or passages of the source. Structures were worked out from names or drawings and are uncertain.

Key:
α3β2 nAChR = conditions: read-out: IC50 α3β2, rat nAChR, cited from earlier work
α7 nAChR = α7 nAChR (Rattus norvegicus, UniProt Q05941); conditions: cited from earlier work

CC[C@H](C)[C@H](N)C(=O)N[C@@H](CCCNC(=N)N)C(=O)N[C@@H](CC(=O)O)C(=O)N[C@@H](CC(C(=O)O)C(=O)O)C(=O)N[C@H]1CSSC[C@@H]2NC(=O)[C@H](C)NC(=O)[C@@H]3CCCN3C(=O)[C@H](CC(N)=O)NC(=O)[C@H](CO)NC(=O)[C@H](CSSC[C@@H](C(=O)O)NC(=O)[C@H](C(C)C)NC(=O)[C@H](Cc3cnc[nH]3)NC(=O)[C@@H]3C[C@@H](O)CN3C(=O)[C@H](CC(N)=O)NC(=O)[C@H](CC(N)=O)NC(=O)[C@H](C(C)C)NC(=O)[C@H](CCCNC(=N)N)NC2=O)NC1=O
pIC50 (α3β2 nAChR; ref [28]): 8.51 | pIC50 (α7 nAChR; read-out: IC50 α7, ref [28]): 8.35

CC(C)[C@@H]1NC(=O)[C@H](Cc2cnc[nH]2)NC(=O)[C@@H]2CCCN2C(=O)[C@H](CC(N)=O)NC(=O)[C@H](CC(N)=O)NC(=O)[C@H](C(C)C)NC(=O)[C@H](CCCNC(=N)N)NC(=O)[C@@H]2CSSC[C@H](NC(=O)[C@H](CCC(=O)O)NC(=O)[C@@H](N)CC(=O)O)C(=O)N[C@@H](CSSC[C@@H](C(=O)N[C@@H](CCCNC(=N)N)C(=O)N[C@@H](CCCNC(=N)N)C(=O)N[C@@H](CCCNC(=N)N)C(=O)O)NC1=O)C(=O)N[C@@H](CO)C(=O)N[C@@H](CC(N)=O)C(=O)N1CCC[C@H]1C(=O)N[C@@H](C)C(=O)N2
pIC50 (α3β2 nAChR; ref [26]): 7.22 | pIC50 (α7 nAChR; read-out: IC50 α7, ref [26]): 8.74

CC[C@H](C)[C@@H]1NC(=O)[C@H](Cc2cnc[nH]2)NC(=O)[C@@H]2CCCN2C(=O)[C@H](CC(N)=O)NC(=O)[C@H](CC(N)=O)NC(=O)[C@H](C(C)C)NC(=O)[C@H](CC(N)=O)NC(=O)[C@@H]2CSSC[C@H](NC(=O)CN)C(=O)N[C@@H](CSSC[C@@H](C(=O)NCC(N)=O)NC1=O)C(=O)N[C@@H](CO)C(=O)N[C@@H](Cc1cnc[nH]1)C(=O)N1CCC[C@H]1C(=O)N[C@@H](C)C(=O)N2
pIC50 (α3β2 nAChR; ref [32]): 7.96 | pIC50 (α7 nAChR; read-out: IC50 α7, ref [32]): 7.57
